{"source": "PubChem BioAssay AID504761 (Drosophila RNAi Screening Center, 2011)", "assay": "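Genome-wide fly cell screen for genes dengue virus requires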 (primary screen)", "cells": "D.Mel-2 cells from Drosophila", "knock-down reagent": "long dsRNA against Drosophila genes", "treatment": "infection with dengue virus type 2; dose and infection time not stated", "measured": "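Per well on two replicate plates, imaging gave the percent of cells positive for viral envelope protein, ranked by infection, and a nuclear count of cells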", "scale": "infection score: higher = more virus-infected cells", "rule for the call": "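Very low infection ranking in both replicate wells (chance probability at most 0.065), then a retest showing infection dropped 1.5-fold or more at p below 0.05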", "calls": "active = confirmed: knock-down lowers infection; inactive = not picked or not confirmed", "note": "The screen tested about 22,000 reagents; shown is an unselected part of those with a known target gene and a result. Of all reagents, 116 (0.52%) were called active. 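Calls depend on retest data that are not deposited; infection was ranked per plate without normalising between plates; the unit of the infection score is not given.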 Names joined by + are all predicted targets of the reagent. Further read-outs or replicates are left out here. The record does not give: the amount of reagent, the time to read-out."}
The opening 2 entries as a preview:
{"gene":"RpL28 + snoRNA:Me28S-C3351","amplicon":"DRSC26182","infection score, replicate 1":8.44,"outcome":"inactive"}
{"gene":"uzip","amplicon":"DRSC04722","infection score, replicate 1":12.3,"outcome":"inactive"}

Results, repeating the preview:
{"gene":"RpL28 + snoRNA:Me28S-C3351","amplicon":"DRSC26182","infection score, replicate 1":8.44,"outcome":"inactive"}
{"gene":"uzip","amplicon":"DRSC04722","infection score, replicate 1":12.3,"outcome":"inactive"}
{"gene":"uzip","amplicon":"DRSC30045","infection score, replicate 1":25.1,"outcome":"inactive"}
{"gene":"BthD","amplicon":"DRSC19395","infection score, replicate 1":3.74,"outcome":"inactive"}
{"gene":"BthD","amplicon":"DRSC25871","infection score, replicate 1":12.9,"outcome":"inactive"}
{"gene":"CG33080","amplicon":"DRSC18080","infection score, replicate 1":6.63,"outcome":"inactive"}
{"gene":"CG33080","amplicon":"DRSC18081","infection score, replicate 1":7,"outcome":"inactive"}
{"gene":"CG33080","amplicon":"DRSC18285","infection score, replicate 1":1.42,"outcome":"inactive"}
{"gene":"CG33080","amplicon":"DRSC25974","infection score, replicate 1":2.66,"outcome":"inactive"}
{"gene":"vap","amplicon":"DRSC20275","infection score, replicate 1":8.74,"outcome":"inactive"}
{"gene":"CG9759","amplicon":"DRSC16558","infection score, replicate 1":8.37,"outcome":"inactive"}
{"gene":"CG9759","amplicon":"DRSC26341","infection score, replicate 1":16,"outcome":"inactive"}
{"gene":"CG13243","amplicon":"DRSC01920","infection score, replicate 1":4.45,"outcome":"inactive"}
{"gene":"CG9410 + CG15908","amplicon":"DRSC04976","infection score, replicate 1":8.12,"outcome":"inactive"}
{"gene":"CG9410 + CG15908","amplicon":"DRSC05001","infection score, replicate 1":7.94,"outcome":"inactive"}
{"gene":"CG9410 + CG15908","amplicon":"DRSC25956","infection score, replicate 1":2.05,"outcome":"inactive"}
{"gene":"CG33109","amplicon":"DRSC16533","infection score, replicate 1":2.92,"outcome":"inactive"}
{"gene":"CG6321","amplicon":"DRSC10623","infection score, replicate 1":3.75,"outcome":"inactive"}
{"gene":"CG14605","amplicon":"DRSC12549","infection score, replicate 1":1.94,"outcome":"inactive"}
{"gene":"CG14605","amplicon":"DRSC29195","infection score, replicate 1":17.8,"outcome":"inactive"}
{"gene":"jus","amplicon":"DRSC23018","infection score, replicate 1":2.46,"outcome":"inactive"}
{"gene":"jus","amplicon":"DRSC26804","infection score, replicate 1":10.8,"outcome":"inactive"}
